Series [1] has as its system HCoV-229E. Briefly: anti-HCoV-229E activity in Huh7 cells by cytopathic effect (CPE) assay. Format: cell-based, Human coronavirus HCoV-229E. The settings on record: SI=TC50/EC50, HCoV-229E in Huh7 cells.
Series [2] concerns HCoV-229E. In words: anti-HCoV-229E activity in Huh7.5 cells by cytopathic effect (CPE) assay. Format: cell-based, Human coronavirus HCoV-229E. The settings on record: SI=TC50/EC50, HCoV-229E in Huh7.5 cells.

As to `Cn1c(=O)c2c(nc(NCCO)n2Cc2ccc(F)cc2)n(C)c1=O` [IMB-2-2, 7-(4-fluorobenzyl)-8-((2-hydroxyethyl)amino)-1,3-dimethyl-3,7-dihydro-1H-purine-2,6-dione], the SI in series [1] is reported as more than 63.49.
For `Cn1c(=O)c2c(nc(NCCO)n2Cc2ccc(OC(F)(F)F)cc2)n(C)c1=O` [IMB-2-3, 8-((2-hydroxyethyl)amino)-1,3-dimethyl-7-(4-(trifluoromethoxy)benzyl)-3,7-dihydro-1H-purine-2,6-dione], the SI in series [1] was more than 21.14; in series [2] it was more than 50.5.
As for `Cn1c(=O)c2c(nc(NCCO)n2Cc2cccc(Cl)c2)n(C)c1=O` [IMB-2-5, 7-(3-chlorobenzyl)-8-((2-hydroxyethyl)amino)-1,3-dimethyl-3,7-dihydro-1H-purine-2,6-dione], in series [1], the SI was found to be 150.38.
In the case of `Cn1c(=O)c2c(nc(NCCO)n2Cc2ccccc2Br)n(C)c1=O` [IMB-2-6, 7-(2-bromobenzyl)-8-((2-hydroxyethyl)amino)-1,3-dimethyl-3,7-dihydro-1H-purine-2,6-dione], the SI in series [1] is recorded as more than 12.59.
On the same count and under the same terms, next, `Cn1c(=O)c2c(nc(NCCO)n2Cc2ccc(OC(F)F)cc2)n(C)c1=O` [IMB-2-8, 7-(4-(difluoromethoxy)benzyl)-8-((2-hydroxyethyl)amino)-1,3-dimethyl-3,7-dihydro-1H-purine-2,6-dione]: more than 80.97; `Cn1c(=O)c2c(nc(NCCO)n2Cc2ccc(Cl)cc2)n(C)c1=O` [IMB-2-14]: 139.86; `COc1cccc(Cn2c(-n3ccnc3)nc3c2c(=O)n(C)c(=O)n3C)c1` [IMB-2-26, 8-(1H-imidazol-1-yl)-7-(3-methoxybenzyl)-1,3-dimethyl-3,7-dihydro-1H-purine-2,6-dione]: more than 5.20.
`COc1cccc(Cn2c(N3CCN(c4ccc(F)cc4)CC3)nc3c2c(=O)n(C)c(=O)n3C)c1` [IMB-2-31, 8-(4-(4-fluorophenyl)piperazin-1-yl)-7-(3-methoxybenzyl)-1,3-dimethyl-3,7-dihydro-1H-purine-2,6-dione] displayed an SI in series [1] of more than 5.20.
`COC(=O)c1ccc2c(ccn2-c2nc3c(c(=O)n(C)c(=O)n3C)n2Cc2cccc(OC)c2)c1` [IMB-2-32, Methyl-1-(7-(3-methoxybenzyl)-1,3-dimethyl-2,6-dioxo-2,3,6,7-tetrahydro-1H-purin-8-yl)-1H-indole-5-carboxylate] gave an SI in series [1] of 9.00.
In the case of `COc1cccc(Cn2c(NCCO)nc3c2c(=O)n(Cc2ccc(F)cc2)c(=O)n3C)c1` [IMB-3-13, 1-(4-fluorobenzyl)-8-((2-hydroxyethyl)amino)-7-(3-methoxybenzyl)-3-methyl-3,7-dihydro-1H-purine-2,6-dione], in series [1], the SI is 2.68.
In series [1], `COc1ccc(Cn2c(=O)c3c(nc(NCCO)n3Cc3cccc(OC)c3)n(C)c2=O)cc1` [IMB-3-15, 8-((2-hydroxyethyl)amino)-7-(3-methoxybenzyl)-1-(4-methoxybenzyl)-3-methyl-3,7-dihydro-1H-purine-2,6-dione] came in with an SI of more than 11.60.
On the same count and under the same terms, next, `COc1cccc(Cn2c(NCCO)nc3c2c(=O)n(Cc2ccncc2)c(=O)n3C)c1` [IMB-3-16, 8-((2-hydroxyethyl)amino)-7-(3-methoxybenzyl)-3-methyl-1-(pyridin-4-ylmethyl)-3,7-dihydro-1H-purine-2,6-dione]: more than 5.20; `Cn1c(=O)c2c(nc(NCCO)n2CC2CCOCC2)n(C)c1=O` [IMB-3-19, ((2-hydroxyethyl)amino)-1,3-dimethyl-7-((tetrahydro-2H-pyran-4-yl)methyl)-3,7-dihydro-1H-purine-2,6-dione]: more than 106.38.
For the compound `CCn1c(=O)c2c(nc(Br)n2Cc2cccc(OC)c2)n(C)c1=O` [IMB-3-30, 8-bromo-1-ethyl-7-(3-methoxybenzyl)-3-methyl-3,7-dihydro-1H-purine-2,6-dione], the SI in series [1] was found to be 36.26.
With `C#CCCn1c(=O)c2c(nc(NCCO)n2Cc2cccc(OC)c2)n(C)c1=O` [IMB-3-45, 1-(but-3-yn-1-yl)-8-((2-hydroxyethyl)amino)-7-(3-methoxybenzyl)-3-methyl-3,7-dihydro-1H-purine-2,6-dione], the SI in series [1] is more than 3.
In series [1], `CCn1c(=O)c2c(nc(NCCO)n2Cc2cccc(OC)c2)n(C)c1=O` [IMB-3-46, ethyl-8-((2-hydroxyethyl)amino)-7-(3-methoxybenzyl)-3-methyl-3,7-dihydro-1H-purine-2,6-dione] yielded an SI of more than 1.29.
The compound `CCCn1c(=O)c2c(nc(NCCO)n2Cc2cccc(OC)c2)n(C)c1=O` [IMB-3-47, 8-((2-hydroxyethyl)amino)-7-(3-methoxybenzyl)-3-methyl-1-propyl-3,7-dihydro-1H-purine-2,6-dione] displayed an SI in series [1] of more than 2.33.
With `COc1cccc(Cn2c(NCCO)nc3c2c(=O)n(CCNC(=O)OC(C)(C)C)c(=O)n3C)c1` [IMB-3-57, tert-butyl(2-(8-((2-hydroxyethyl)amino)-7-(3-methoxybenzyl)-3-methyl-2,6-dioxo-2,3,6,7-tetrahydro-1H-purin-1-yl)ethyl)carbamate], in series [1], the SI is given as more than 3.00.
In series [1], `COc1cccc(Cn2c(NCCO)nc3c2c(=O)n(CCCNC(=O)OC(C)(C)C)c(=O)n3C)c1` [IMB-3-58, tert-butyl(3-(8-((2-hydroxyethyl)amino)-7-(3-methoxybenzyl)-3-methyl-2,6-dioxo-2,3,6,7-tetrahydro-1H-purin-1-yl)propyl)carbamate] returned an SI of more than 3.00.
On the same count and under the same terms, in the case of `C=CCn1c(=O)c2c(nc(NCCO)n2Cc2cccc(OC)c2)n(C)c1=O` [IMB-3-71, allyl-8-((2-hydroxyethyl)amino)-7-(3-methoxybenzyl)-3-methyl-3,7-dihydro-1H-purine-2,6-dione] it was 3.00; in that of `C#CCn1c(=O)c2c(nc(NCCO)n2Cc2cccc(OC)c2)n(C)c1=O` [IMB-3-72, 8-((2-hydroxyethyl)amino)-7-(3-methoxybenzyl)-3-methyl-1-(prop-2-yn-1-yl)-3,7-dihydro-1H-purine-2,6-dione], more than 1.73; in that of `COc1cccc(Cn2c(NCCO)nc3c2c(=O)n(C)c(=O)n3Cc2ccccc2)c1` [IMB-3-81, benzyl-8-((2-hydroxyethyl)amino)-7-(3-methoxybenzyl)-1-methyl-3,7-dihydro-1H-purine-2,6-dione], more than 2.08.
`CCOC(=O)c1cccc(Cn2c(NCCO)nc3c2c(=O)n(C)c(=O)n3C)c1` [IMB-4-6, ethyl3-((8-((2-hydroxyethyl)amino)-1,3-dimethyl-2,6-dioxo-1,2,3,6-tetrahydro-7H-purin-7-yl)methyl)benzoate] gave an SI in series [1] of 80.97.
`Cn1c(=O)c2c(nc(NCCO)n2Cc2ccsc2)n(C)c1=O` [IMB-4-12, 8-((2-hydroxyethyl)amino)-1,3-dimethyl-7-(thiophen-3-ylmethyl)-3,7-dihydro-1H-purine-2,6-dione]: the SI in series [1] is more than 50.13.
`COc1cccc(CCn2c(NCCO)nc3c2c(=O)n(C)c(=O)n3C)c1` [IMB-4-13, 8-((2-hydroxyethyl)amino)-7-(3-methoxyphenethyl)-1,3-dimethyl-3,7-dihydro-1H-purine-2,6-dione] returned an SI in series [1] of more than 12.98.
The same measure, in the same setting: in the case of `Cc1ccccc1Cn1c(NCCO)nc2c1c(=O)n(C)c(=O)n2C` [IMB-68, 8-((2-hydroxyethyl)amino)-1,3-dimethyl-7-(2-methylbenzyl)-3,7-dihydro-1H-purine-2,6-dione] it was 139.86; in that of `Cn1c(=O)c2c(nc(NCCO)n2Cc2cccc([N+](=O)[O-])c2)n(C)c1=O` [IMB-79], more than 11.60.
Take `Cn1c(=O)c2c(nc(NCCO)n2Cc2cccc(F)c2)n(C)c1=O` [IMB-80, 7-(3-fluorobenzyl)-8-((2-hydroxyethyl)amino)-1,3-dimethyl-3,7-dihydro-1H-purine-2,6-dione]: the figures for the SI in series [1] and in series [2] were more than 27.03 and more than 20.53, respectively.
`Cn1c(=O)c2c(nc(NCCO)n2Cc2cccc(Br)c2)n(C)c1=O` [IMB-81, 7-(3-bromobenzyl)-8-((2-hydroxyethyl)amino)-1,3-dimethyl-3,7-dihydro-1H-purine-2,6-dione] had an SI in series [1] of 50.07.
Turning to `Cn1c(=O)c2c(nc(NCCO)n2Cc2cccc(F)c2F)n(C)c1=O` [IMB-82, 7-(2,3-difluorobenzyl)-8-((2-hydroxyethyl)amino)-1,3-dimethyl-3,7-dihydro-1H-purine-2,6-dione], the SI is on record as more than 9 in series [1] and more than 3.95 in series [2].
In series [1], `Cn1c(=O)c2c(nc(NCCO)n2Cc2ccc(F)cc2F)n(C)c1=O` [IMB-83, 7-(2,4-difluorobenzyl)-8-((2-hydroxyethyl)amino)-1,3-dimethyl-3,7-dihydro-1H-purine-2,6-dione] came in with an SI of more than 63.49.
For `Cn1c(=O)c2c(nc(NCCO)n2Cc2ccc(C(C)(C)C)cc2)n(C)c1=O` [IMB-84, 7-(4-(tert-butyl)benzyl)-8-((2-hydroxyethyl)amino)-1,3-dimethyl-3,7-dihydro-1H-purine-2,6-dione], the values for the SI in series [1] and in series [2] were more than 16.86 and more than 21.14, respectively.
Compound `CCCCc1ccc(Cn2c(NCCO)nc3c2c(=O)n(C)c(=O)n3C)cc1` [IMB-85, 7-(4-butylbenzyl)-8-((2-hydroxyethyl)amino)-1,3-dimethyl-3,7-dihydro-1H-purine-2,6-dione] registered an SI in series [2] of more than 64.1.
Take `COc1ccc(Cn2c(NCCO)nc3c2c(=O)n(C)c(=O)n3C)cc1` [IMB-88]: the SI in series [1] is on record as more than 16.86; in series [2] it was more than 11.85.
`Cn1c(=O)c2c(nc(NCCO)n2Cc2c(F)cccc2F)n(C)c1=O` [IMB-93, 7-(2,6-difluorobenzyl)-8-((2-hydroxyethyl)amino)-1,3-dimethyl-3,7-dihydro-1H-purine-2,6-dione] showed an SI in series [1] of more than 80.97.
For `COc1cccc(Cn2c(NCCO)nc3c2c(=O)n(C)c(=O)n3C)c1` [IMB-C5], the SI was more than 21.19 in series [1] and more than 5.2 in series [2].
On the same counts, the results for `COc1cccc(Cn2c(N[C@@H](C)CO)nc3c2c(=O)n(C)c(=O)n3C)c1` [IMB-ZH-2, (S)-8-((1-hydroxypropan-2-yl)amino)-7-(3-methoxybenzyl)-1,3-dimethyl-3,7-dihydro-1H-purine-2,6-dione] are more than 3 and more than 1.62.

These data come from patent US20240352022A1, “GROUP OF IMB-C5 SERIES COMPOUNDS HAVING ANTI-CORONAVIRUS ACTIVITY AND APPLICATION THEREOF” (priority 2021, published 2024).
